The assay deals with SARS-COV-2 Wuhan WT Spike_del18 on VSV-delG pseudotyped particles (SARS-COV-2, UniProt P0DTC2 14-1255). As to the kind of experiment: cell-based or functional assay.

B1: pX-B011_GS-VHH3-117-hc_(G4S)_VHH3-83-hc-N85E_His8 (bispecific antibody)
chain: DVQLVESGGGLVQPGGSLRLSCAASGKAVSISDMGWYRQPPGKQRELVATITKTGSTNYADSAQGRFTISRDNTKSAVYLEMKSLRPEDTAVYYCNAWLPYGMGPDYYGMELWGKGTLVTVSSGGGGSDVQLQESGGGLVQPGDSLRLSCVLSGGVFTSYAMGWFRQAPGKEREFLAAITFNSDATYYADSVKGRFTISRDNAKNTAYLQMNSLRPEDTAVYSCAAGGNHYNPQYYHDYDKYDHWGQGTLVTVSS
Consider B1, for which the “IC50 ug/ml, pseudoneutralization assay” value amounted to 0.609 µg/mL.

B2: pX-B008_GS-VHH3-117-hc_(G4S)6_VHH3-83-hc-N85E_His8 (bispecific antibody)
chain: DVQLVESGGGLVQPGGSLRLSCAASGKAVSISDMGWYRQPPGKQRELVATITKTGSTNYADSAQGRFTISRDNTKSAVYLEMKSLRPEDTAVYYCNAWLPYGMGPDYYGMELWGKGTLVTVSSGGGGSGGGGSGGGGSGGGGSGGGGSGGGGSDVQLQESGGGLVQPGDSLRLSCVLSGGVFTSYAMGWFRQAPGKEREFLAAITFNSDATYYADSVKGRFTISRDNAKNTAYLQMNSLRPEDTAVYSCAAGGNHYNPQYYHDYDKYDHWGQGTLVTVSS
Take B2: the “IC50 ug/ml, pseudoneutralization assay” value turned out to be 0.196 µg/mL.

The record behind these values is patent US20240228596A1 (VIB VZW, published 2024).
